Changes are numbered by the printed parent chain. Names and notes keep the numbering of the source.

B1: arabinose BP D257C JPW4039 (conjugate, UniProt P02924 24-329, looked up, variant D257C)
L-arabinose-binding …: ENLKLGFLVKQPEEPWFQTEWKFADKAGKDLGFEVIKIAVPDGEKTLNAIDSLAASGAKGFVICTPDPKLGSAIVAKARGYDMKVIAVDDQFVNAKGKPMDTVPLVMMAATKIGERQGQELYKEMQKRGWDVKESAVMAITANELDTARRRTTGSMDALKAAGFPEKQIYQVPTKSNDIPGAFDAANSMLVQHPEVKHWLIVGMNDSTVLGGVRATEGQGFKAADIIGIGINGVDAVSELSKAQATGFYGSLLPSPCVHGYKSSEMLYNWVAKDVEPPKFTEVTDVVLITRDNFKEELEKKGLGGK
modifications: JPW4039 dye conjugate
B2: arabinose BP D257C Acrylodan (conjugate, UniProt P02924 24-329, looked up, variant D257C)
L-arabinose-binding …: B1 L-arabinose-binding …
modifications: acrylodan label
B3: Glu/Asp BP A207C JPW4039 (conjugate, UniProt P37902 23-302, looked up, variant A207C)
Glutamate/aspartate import …: DDAAPAAGSTLDKIAKNGVIVVGHRESSVPFSYYDNQQKVVGYSQDYSNAIVEAVKKKLNKPDLQVKLIPITSQNRIPLLQNGTFDFECGSTTNNVERQKQAAFSDTIFVVGTRLLTKKGGDIKDFANLKDKAVVVTSGTTSEVLLNKLNEEQKMNMRIISAKDHGDSFRTLESGRAVAFMMDDCLLAGERAKAKKPDNWEIVGKPQSQEAYGCMLRKDDPQFKKLMDDTIAQVQTSGEAEKWFDKWFKNPIPPKNLNMNFELSDEMKALFKEPNDKALN
modifications: JPW4039 label
B4: Glu/Asp BP A207C Fluorescein (conjugate, UniProt P37902 23-302, looked up, variant A207C)
Glutamate/aspartate import …: B3 Glutamate/aspartate import …
modifications: fluorescein conjugate
B5: Glu/Asp BP E119C JPW4045 (conjugate, UniProt P37902 23-302, looked up, variant E119C)
Glutamate/aspartate import …: B3 Glutamate/aspartate import … with E97C, C185A
modifications: JPW4045 dye label
B6: Glu/Asp BP A207C Acrylodan (conjugate, UniProt P37902 23-302, looked up, variant A207C)
Glutamate/aspartate import …: B3 Glutamate/aspartate import …
modifications: acrylodan label
B7: Glu/Asp BP A210C JPW4039 (conjugate, UniProt P37902 23-302, looked up, variant A210C)
Glutamate/aspartate import …: B3 Glutamate/aspartate import … with C185A, A188C
modifications: JPW4039 dye label
B8: Glu/Asp BP A207C JPW4042 (conjugate, UniProt P37902 23-302, looked up, variant A207C)
Glutamate/aspartate import …: B3 Glutamate/aspartate import …
modifications: JPW4042 dye label
B9: Glu/Asp BP A207C JPW4045 (conjugate, UniProt P37902 23-302, looked up, variant A207C)
Glutamate/aspartate import …: B3 Glutamate/aspartate import …
modifications: JPW4045 label
B10: Glu/Asp BP A207C NBD (conjugate, UniProt P37902 23-302, looked up, variant A207C)
Glutamate/aspartate import …: B3 Glutamate/aspartate import …
modifications: NBD dye conjugate
B11: Glu/Asp BP A210C JPW4042 (conjugate, UniProt P37902 23-302, looked up, variant A210C)
Glutamate/aspartate import …: B3 Glutamate/aspartate import … with C185A, A188C
modifications: JPW4042 dye conjugate
B12: Glu/Asp BP A210C JPW4045 (conjugate, UniProt P37902 23-302, looked up, variant A210C)
Glutamate/aspartate import …: B3 Glutamate/aspartate import … with C185A, A188C
modifications: JPW4045 label
B13: Glu/Asp BP A210C Fluorescein (conjugate, UniProt P37902 23-302, looked up, variant A210C)
Glutamate/aspartate import …: B3 Glutamate/aspartate import … with C185A, A188C
modifications: fluorescein conjugate
B14: Glu/Asp BP A210C NBD (conjugate, UniProt P37902 23-302, looked up, variant A210C)
Glutamate/aspartate import …: B3 Glutamate/aspartate import … with C185A, A188C
modifications: NBD conjugate
B15: Glu/Asp BP A210C Acrylodan (conjugate, UniProt P37902 23-302, looked up, variant A210C)
Glutamate/aspartate import …: B3 Glutamate/aspartate import … with C185A, A188C
modifications: acrylodan label
B16: Glu/Asp BP E119C JPW4039 (conjugate, UniProt P37902 23-302, looked up, variant E119C)
Glutamate/aspartate import …: B3 Glutamate/aspartate import … with E97C, C185A
modifications: JPW4039 dye conjugate
B17: Glu/Asp BP E119C Acrylodan (conjugate, UniProt P37902 23-302, looked up, variant E119C)
Glutamate/aspartate import …: B3 Glutamate/aspartate import … with E97C, C185A
modifications: acrylodan conjugate
B18: dipeptide BP W315C Fluorescein (conjugate, UniProt P23847 29-535, looked up, variant W315C)
Dipeptide-binding protein: KTLVYCSEGSPEGFNPQLFTSGTTYDASSVPLYNRLVEFKIGTTEVIPGLAEKWEVSEDGKTYTFHLRKGVKWHDNKEFKPTRELNADDVVFSFDRQKNAQNPYHKVSGGSYEYFEGMGLPELISEVKKVDDNTVQFVLTRPEAPFLADLAMDFASILSKEYADAMMKAGTPEKLDLNPIGTGPFQLQQYQKDSRIRYKAFDGYWGTKPQIDTLVFSITPDASVRYAKLQKNECQVMPYPNPADIARMKQDKSINLMEMPGLNVGYLSYNVQKKPLDDVKVRQALTYAVNKDAIIKAVYQGAGVSAKNLIPPTMCGYNDDVQDYTYDPEKAKALLKEAGLEKGFSIDLWAMPVQRPYNPNARRMAEMIQADWAKVGVQAKIVTYEWGEYLKRAKDGEHQTVMMGWTGDNGDPDNFFATLFSCAASEQGSNYSKWCYKPFEDLIQPARATDDHNKRVELYKQAQVVMHDQAPALIIAHSTVFEPVRKEVKGYVVDPLGKHHFENVSIE
modifications: fluorescein label
B19: dipeptide BP W315C NBD (conjugate, UniProt P23847 29-535, looked up, variant W315C)
Dipeptide-binding protein: B18 Dipeptide-binding protein
modifications: NBD dye conjugate

A short description of the first data set: Fluorescence emission spectra without and with saturating ligand (wavelength shift, ΔIstd, ΔRmax). Conditions: emission maximum, absence of ligand. In outline: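 Emission spectra of bPBP–fluorophore conjugates (50–1000 nM protein, 25 °C, stirred) recorded without and with saturating ligand, using fluorophore-specific excitation. Wavelength shift, ΔIstd (intensity change at the mid-point wavelength) and ΔRmax (maximal ratiometric change over enumerated band pairs, 2 nm steps, 10 nm width) derived.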
On to B1, for which the “λmax,apo (nm)” value was 600.
Same read-out and setting: the result for B2 reads 495.
B3: the “λmax,apo (nm)” value is given as 592.
Still for that read-out and setting: as for B4, the figure is 520; as for B5, 649.
For the molecule B6, the “λmax,apo (nm)” value is listed as 498.
On the same count and under the same terms, as for B7, the figure is 593.
Consider B8, for which the “λmax,apo (nm)” value was 635.
On the same count and under the same terms, as for B9, the figure is 637.
Same read-out and setting: the result for B10 reads 529; that for B11, 648; that for B12, 647.
Same read-out and setting: as for B13, the figure is 522; as for B14, 543.
Take B15: the “λmax,apo (nm)” value stood at 497.
As to B16, the “λmax,apo (nm)” value was found to be 593.
In the case of B17, the “λmax,apo (nm)” value was found to be 498.
Same read-out and setting: as for B18, the figure is 521; as for B19, 546.

The same data set, now with this note: emission maximum, saturating ligand (ligand column).
Regarding B1, the “λmax,sat (nm)” value turned out to be 596.
The same measure, in the same setting: as for B2, the figure is 495.
The same measure, in the same setting: the result for B3 reads 593; that for B4, 520; that for B5, 644.
On to B6, for which the “λmax,sat (nm)” value came to 497.
Regarding B7, the “λmax,sat (nm)” value came to 594.
For the molecule B8, the “λmax,sat (nm)” value turned out to be 634.
The same measure, in the same setting: the result for B9 reads 639.
On to B10, for which the “λmax,sat (nm)” value is 542.
On the same count and under the same terms, as for B11, the figure is 645; as for B12, 650.
On the same count and under the same terms, as for B13, the figure is 522; as for B14, 542; as for B15, 496.
On to B16, for which the “λmax,sat (nm)” value is recorded as 594.
On the same count and under the same terms, as for B17, the figure is 497.
The same measure, in the same setting: the result for B18 reads 521; that for B19, 546.

The data set is the same for the next values; noted with them: standard intensity change, unbound vs ligand-saturated.
As to B1, the ΔIstd is given as 0.38.
On the same count and under the same terms, as for B2, the figure is 0.26.
With B3, the ΔIstd is 0.05.
On the same count and under the same terms, as for B4, the figure is 0.12; as for B5, 0.08; as for B6, 0.26.
Still for that read-out and setting: as for B7, the figure is 0.08; as for B8, 0.20; as for B9, 0.15.
On the same count and under the same terms, the result for B10 reads 0.05; that for B11, 0.11; that for B12, 0.09.
Consider B13, for which the ΔIstd is listed as 0.02.
Still for that read-out and setting: as for B14, the figure is 0.02; as for B15, 0.09.
The same measure, in the same setting: as for B16, the figure is 0.12; as for B17, 0.11; as for B18, 0.02.
In the case of B19, the ΔIstd is recorded as 0.15.

The data set is the same for the next values; noted with them: standard ratiometric change, unbound vs ligand-saturated.
Regarding B1, the ΔRmax worked out at 0.92.
Same read-out and setting: the result for B2 reads 1.66; that for B3, 0.35; that for B4, 0.25.
On the same count and under the same terms, as for B5, the figure is 1.73.
Still for that read-out and setting: the result for B6 reads 1.61; that for B7, 0.26.
As to B8, the ΔRmax was 1.37.
Same read-out and setting: as for B9, the figure is 1.19; as for B10, 2.53.
Same read-out and setting: as for B11, the figure is 0.79; as for B12, 0.71; as for B13, 0.14.
The same measure, in the same setting: the result for B14 reads 0.30; that for B15, 0.40.
As for B16, the ΔRmax turned out to be 0.34.
Same read-out and setting: as for B17, the figure is 0.65.
Same read-out and setting: as for B18, the figure is 0.21.
Same read-out and setting: as for B19, the figure is 0.37.
